Pooled drug test results. Numbers come from NIAID ChemDB, via PubChem.

Common to all: growth or infection tests; agent: Mycobacterium tuberculosis

An empty or dashed field is not shown. ECn is the concentration giving n% inhibition of infection, replication or growth. A number after MIC or MFC names an inhibition level or a share of isolates. MIC bound: limit read from a one-dose screen. Lines come from different laboratories, so protocols vary. Inhibition is in % at the dose shown (toxicity tests: loss of growth or viability).

SMILES	endpoint	read by	tested at	strain or isolate	cell line	value
O=[N+]([O-])c1ccc(OCCCOc2ccc([N+](=O)[O-])cc2)cc1	MIC			H37Rv		>100 µg/mL
FC(F)(F)Oc1ccc(CNCCNC2C3CC4CC(C3)CC2C4)cc1	MIC					12.5 µM
COc1cc2nc3occc3c(OC)c2c2c1OC(C)(C)C=C2	MIC bound	resazurin		H37Rv		>6.25 µg/mL
O=C(/C=C/c1cccnc1)c1ccc(F)cc1	EC50					<12.5 µg/mL
CCN(CC)CCCNc1cc(OC)cc2nc3cc(Cl)ccc3nc12.Cl.Cl	MIC	BACTEC		H37Rv	VERO	6.25 µg/mL
CCOC(=O)Nc1cc(N[C@@H](C)[C@H](O)c2ccccc2)c(N)c(N)n1	inhibition		12.5 µg/mL	H37Rv		0%
CC1CCC(NCCNc2cccc3ncccc23)CC1	MIC					3.13 µM
NCC[C@H](O)C(=O)N[C@@H]1C[C@H](N)[C@@H](O[C@H]2O[C@H](CN)[C@@H](O)[C@H](O)[C@H]2O)[C@H](O)[C@H]1O[C@H]1O[C@H](CO)[C@@H](O)[C@H](N)[C@H]1O	MIC			TN4728 (BN)		>256 µg/mL
COc1ccc(C(=O)/C=C/c2ccccc2)c(O)c1	EC50					<12.5 µg/mL
CC(=O)SCC(=O)Nc1ccccc1O	MIC			H37Rv		100 µg/mL
O=[N+]([O-])c1ccc(/C=N\O)o1	MIC	BACTEC		H37Rv		6.25 µg/mL
c1ccc(C(CNCCNC2CCCCCCC2)c2ccccc2)cc1	MIC					3.13 µM
CCC(C)NCCNC[C@]1(C)CCC[C@]2(C)c3ccc(C(C)C)cc3CC[C@@H]12	MIC					12.5 µM
O=C(O)CCCCCCCCCCCCCCCCCc1ccc2ccccc2c1Cl	MIC			H37Rv		>100 µg/mL
CCOC(=O)N(c1ccc(S(N)(=O)=O)cc1)c1cc(Cl)c([N+](=O)[O-])c(N)n1	EC50			H37Rv		>12.5 µg/mL
O=c1oc2ccc(F)cc2c(=O)n1-c1cccc(Cl)c1	MIC			CNCTC MY331/88		8 µM
Cc1cc(Cl)nc(Cl)c1CCCl	MIC			H37Rv		50 µg/mL
CCCOC(=O)Nc1cc(NC(c2ccccc2)c2ccccc2)c2nc(-c3cc(OC)c(OC)c(OC)c3)c(-c3cc(OC)c(OC)c(OC)c3)nc2n1	inhibition		12.5 µg/mL	H37Rv		0%
NC(=O)c1cccnc1	MIC			H37Rv		>1000 µg/mL
COC(=O)n1c(=O)nc2c3c(ncn21)Oc1c(c(-c2ccccc2)nn1-c1ccccc1)C3c1ccc(Cl)cc1	MIC	resazurin		H37Rv	VERO	6.25 µg/mL
CN(C)c1ccc(/C=N/NC(=O)c2ccccc2Cl)cc1	MIC					10 µg/mL
C[C@@H]1CN(c2c(F)c(N)c3c(=O)c(C(=O)O)cn(C4CC4)c3c2F)C[C@H](C)N1	MBC			ATCC 35827		0.06 µg/mL
COc1cccc2c1N=c1c(Cl)c3c(c(Cl)c1O2)=Nc1c(OC)cccc1O3	inhibition	BACTEC	12.5 µg/mL	H37Rv		-5%
C=C(Cl)CN(C(C)=O)C1CCCCC1	MIC			H37Rv		>100 µg/mL
C/C(=N/NC(=O)c1ccccc1Cl)c1ccccc1	MIC					10 µg/mL
CN(C)c1ccc(/C=C/C(=O)c2ccncc2)cc1	EC50			H37Rv		>12.5 µg/mL
CC1(C)[C@H]2CC[C@@H](CNCCNC34CC5CC(CC(C5)C3)C4)[C@@H]1C2	MIC					12.5 µM
CC(C)N=c1cc2n(-c3ccc(Cl)cc3)c3ccccc3nc-2cc1Nc1ccc(Cl)cc1	MIC	broth dilution / resazurin		MDR15		4 µg/mL
O=C(COc1ccc([As](=O)(O)O)cc1)NCCO	MIC			H37Rv		>100 µg/mL
Fc1ccccc1CCNCCN1CCCC2CCCCC21	MIC					50 µM
Cc1cc(Nc2ccc(Cl)cc2S(=O)(=O)O)c2c3c1nc(=O)/c(=C(\O)c1ccccc1)c=3c1ccccc1c2=O.N	MIC			H37Rv		50 µg/mL
O=c1cc(-c2ccc(O)c(-c3c(O)cc4oc(-c5ccc(O)cc5)cc(=O)c4c3O)c2)oc2cc(O)cc(O)c12	EC50					>12.5 µg/mL
CN(C)C1C(=O)C(C(=O)NCNCCCO)=C(O)C2(O)C(=O)C3=C(O)c4c(O)cccc4C(C)(O)C3CC12	MIC bound	BACTEC		H37Rv		>12.5 µg/mL
CC(=O)NNC(=O)c1ccccc1	MIC					>200 µg/mL
CCN(CC)c1ccc(N=C2C=CC(=O)C(NC(C)=O)=C2)c(C)c1	MIC bound	BACTEC		H37Rv		≤12.5 µg/mL
O=C(O)CNc1ccccc1	MIC			H37Rv		>100 µg/mL
CO[C@H]1/C=C/O[C@@]2(C)Oc3c(C)c(O)c4c(O)c(c(/C=N/N5CCN(C/C=C/c6ccccc6)CC5)c(O)c4c3C2=O)NC(=O)/C(C)=C\C=C\[C@H](C)[C@H](O)[C@@H](C)[C@@H](O)[C@@H](C)[C@H](OC(C)=O)[C@@H]1C	MIC			3113 (rifampin-sensitive)		0.05 µg/mL
O=c1oc2ccc(F)cc2c(=O)n1-c1ccc(Br)cc1	MIC			CNCTC MY331/88		8 µM
Cc1ccc(C)c(NC(=O)C(=O)Nn2c(=S)[nH]c3ccccc3c2=O)c1	MIC bound	BACTEC		H37Rv		>12.5 µg/mL
CC(CNCCNCCc1ccc(Cl)cc1Cl)c1ccccc1	MIC					25 µM
O=S1(=O)CS(=O)(=O)OCCCCO1	inhibition	BACTEC	12.5 µg/mL	H37Rv		-3%
Cc1cccc(O)c1	MIC			H37Rv		100 µg/mL
CC[C@H]1OC(=O)[C@H](C)[C@@H](O[C@H]2C[C@@](C)(OC)[C@@H](O)[C@H](C)O2)[C@H](C)[C@@H](O[C@@H]2O[C@H](C)C[C@H](N(C)C)[C@H]2O)[C@](C)(OC)C[C@@H](C)C(=O)[C@H](C)[C@@H](O)[C@]1(C)O	MIC90			MDR		>8 µg/mL
O=C(NNS(=O)(=O)c1ccc(Cl)c(Cl)c1)c1ccccc1	MIC					>200 µg/mL
CCCCC(CC)CN1CN(CC(CC)CCCC)CC(C)(NCCNCc2cccc3ccccc23)C1	MIC					25 µM
CC[C@H]1OC(=O)[C@H](C)[C@@H](O[C@H]2C[C@@](C)(OC)[C@@H](O)[C@H](C)O2)[C@H](C)[C@@H](O[C@@H]2O[C@H](C)C[C@H](N(C)C)[C@H]2O)[C@](C)(O)C[C@@H](C)CN(C)[C@H](C)[C@@H](O)[C@]1(C)O	MBC90			DRUG-SUS		>8 µg/mL
CCCCCCCCCCCNCCNCC1CCCO1	MIC					50 µM
COc1ccc2oc3ccc(OC)cc3c2c1	MIC			H37Rv		25 µg/mL
CCOC(=O)Nc1cc(NC(C)C(O)c2ccc(O)cc2)c([N+](=O)[O-])c(N)n1	inhibition		12.5 µg/mL	H37Rv		0%
NC1CCN(c2nc3c(cc2F)c(=O)c(C(=O)O)cn3-c2ccc(F)cc2F)C1	MIC			ATCC 35822		>8 µg/mL
CCOc1ccc(-c2oc(/C=N/NS(=O)(=O)c3ccc(C)cc3)c([N+](=O)[O-])c2-c2ccc(OCC)cc2)cc1	MIC bound	BACTEC		H37Rv		>12.5 µg/mL
CC(CNCCNC(C)(C)CC(C)(C)C)c1ccccc1	MIC					50 µM
CN(C(N)=S)c1cccc2ccccc12	MIC			H37Rv		>100 µg/mL
c1ccc(C(NCCNC2CCCc3ccccc32)c2ccccc2)cc1	MIC					50 µM
NNC(=O)c1cccc(C(=O)NN)n1	MIC bound	BACTEC		H37Rv		>12.5 µg/mL
COc1ccc2oc(=O)n(-c3ccc(C(F)(F)F)cc3)c(=O)c2c1	MIC			CNCTC MY331/88		8 µM
CNc1c(Oc2ccc(C)cc2)cc(Nc2ccc(C)cc2)c2c1C(=O)c1ccccc1C2=O	MIC			H37Rv		>100 µg/mL
CO[C@H]1/C=C/O[C@@]2(C)Oc3c(C)c(O)c4c(O)c(c5c(c4c3C2=O)NC2(CCN(CC(C)C)CC2)N=5)=NC(=O)/C(C)=C\C=C\[C@H](C)[C@H](O)[C@@H](C)[C@@H](O)[C@@H](C)[C@H](OC(C)=O)[C@@H]1C	MBC			35 (rifampin-resistant)		0.2 µg/mL
O=NNc1ccc(Sc2ccc(NN=O)nc2)cc1	MIC bound	BACTEC		H37Rv		>12.5 µg/mL
O=C(Nc1ccccc1)C(C(=O)c1ccccc1)C(=O)c1ccccc1	MIC			H37Rv		>100 µg/mL
Cc1cc(=O)c2ccc3c(c2[nH]1)Oc1ccc2c(=O)cc(C)[nH]c2c1O3	MIC bound	BACTEC		H37Rv		>12.5 µg/mL
Cc1ccc(-n2c(=O)oc3ccc(F)cc3c2=O)cc1	MIC			CNCTC MY331/88		31 µM
COC(=O)c1nc(C(=O)OC)c(C(=O)OC)nc1C(=O)OC	MIC bound	BACTEC		H37Rv		>12.5 µg/mL
CCCCCCCCCCCCCCCCCCNCCNC1C2CC3CC(C2)CC1C3	MIC					50 µM
CCOC(=O)Nc1cc(NC(c2ccccc2)c2ccccc2)c2nc(-c3ccccc3)c(-c3ccccc3)nc2n1	EC50			H37Rv		>12.5 µg/mL
COc1ccc(/C=C/C(=O)c2ccc([N+](=O)[O-])cc2)cc1	EC50			H37Rv		<12.5 µg/mL
NC(=O)c1nc([C@@H]2O[C@H](CO)[C@@H](O)[C@H]2O)no1	MIC bound	BACTEC		H37Rv		>12.5 µg/mL
CO[C@H]1/C=C/O[C@@]2(C)Oc3c(C)c(O)c4c(O)c(c(/C=N/N5CCN(C)CC5)c(O)c4c3C2=O)NC(=O)/C(C)=C\C=C\[C@H](C)[C@H](O)[C@@H](C)[C@@H](O)[C@@H](C)[C@H](OC(C)=O)[C@@H]1C	MIC			TN1733		>32 µg/mL
C=C1[C@@H]2[C@H]3OC(=O)C(=C)[C@@H]3CCC(=C)[C@@H]2C[C@@H]1O	inhibition	BACTEC	12.5 µg/mL	H37Rv		19%
CC(CNCCc1ccc(O)cc1)NC[C@@H]1CC[C@H]2C[C@@H]1C2(C)C	MIC					25 µM
OCC(CO)(CO)CO	MIC			H37Rv		>100 µg/mL
OCc1ccccc1Sc1ccccc1CNCCNCc1cccc(F)c1	MIC					25 µM
CC(=O)CC(=O)Nc1cc(C)ccn1	MIC			H37Rv		>100 µg/mL
CCOC(=O)Nc1cc(NC)c([N+](=O)[O-])c(N)n1	EC50			H37Rv		>12.5 µg/mL
Cn1cc(-n2[nH]c(=O)n(-c3ccccc3)c2=O)c(=O)n(C)c1=O	MIC bound	resazurin		H37Rv		>6.25 µg/mL
O=C(CC(=O)c1ccccc1)Nc1ccc(S(=O)(=O)Nc2ccc3[nH]c(=S)sc3c2)cc1	MIC			H37Rv		>100 µg/mL
O=C(/C=C/c1ccccc1)c1cccc(I)c1O	inhibition		12.5 µg/mL	H37Rv		0%
Fc1ccc(CCNCCNCCC2=CCCCC2)cc1	MIC					12.5 µM
Cc1cc2c(cc1Cl)Sc1nccn1S2(=O)=O	inhibition	resazurin	6.25 µg/mL	H37Rv		-19%
OC1CNCC1(O)c1ccccc1	MIC			H37Rv		>100 µg/mL
CC(=O)NNC(=S)N/C=C(/C(=O)c1ccccc1)c1ccccc1	inhibition	BACTEC	12.5 µg/mL	H37Rv		27%
CCOC(=O)c1ccccc1NCCO	MIC			H37Rv		50 µg/mL
N[C@@H](CCC(=O)N[C@@H](CS)C(=O)NCC(=O)O)C(=O)O	MIC	BACTEC		H37Rv		≥12.5 µg/mL
COC(=O)c1cccc(N)c1	MIC			H37Rv		>100 µg/mL

The first 8 rows once more:

SMILES,endpoint,read by,tested at,strain or isolate,cell line,value
O=[N+]([O-])c1ccc(OCCCOc2ccc([N+](=O)[O-])cc2)cc1,MIC,,,H37Rv,,>100 µg/mL
FC(F)(F)Oc1ccc(CNCCNC2C3CC4CC(C3)CC2C4)cc1,MIC,,,,,12.5 µM
COc1cc2nc3occc3c(OC)c2c2c1OC(C)(C)C=C2,MIC bound,resazurin,,H37Rv,,>6.25 µg/mL
O=C(/C=C/c1cccnc1)c1ccc(F)cc1,EC50,,,,,<12.5 µg/mL
CCN(CC)CCCNc1cc(OC)cc2nc3cc(Cl)ccc3nc12.Cl.Cl,MIC,BACTEC,,H37Rv,VERO,6.25 µg/mL
CCOC(=O)Nc1cc(N[C@@H](C)[C@H](O)c2ccccc2)c(N)c(N)n1,inhibition,,12.5 µg/mL,H37Rv,,0%
CC1CCC(NCCNc2cccc3ncccc23)CC1,MIC,,,,,3.13 µM
NCC[C@H](O)C(=O)N[C@@H]1C[C@H](N)[C@@H](O[C@H]2O[C@H](CN)[C@@H](O)[C@H](O)[C@H]2O)[C@H](O)[C@H]1O[C@H]1O[C@H](CO)[C@@H](O)[C@H](N)[C@H]1O,MIC,,,TN4728 (BN),,>256 µg/mL